Results of unrelated studies side by side (data: NIAID ChemDB).

All rows: target-level tests; agent: HIV-1; target: Integrase

An empty or dashed field is not shown. Conditions beyond the fields shown may differ between rows. ICn: concentration for n% inhibition. Two numbers with a dash give a range or band.

| smiles | endpoint | strain | changes | read by | setting | result |
|---|---|---|---|---|---|---|
| O=C(/C=C/c1ccc(O)c(O)c1)OCCc1ccc(NC(=S)SCCO)cc1 | IC50 | - | C56S | 3′ processing | - | 23 µM |
| COc1cccc(/C=C/C(=O)/C=C/c2cccc(OC)n2)n1 | IC50 | - | - | - | - | >20 µM |
| Cc1nsc(-c2cn3c(c(O)c2=O)C(=O)N(Cc2cccc(Cl)c2)CC3)n1 | IC50 | - | - | ELISA | - | 0.01–0.1 µM |
| CN(C)C(=O)C(=O)N(C)C12CCC(CC#N)(CC1)Cn1c2nc(C(=O)NCc2ccc(F)cc2)c(O)c1=O | Ki | NL4-3 | - | binding | pseudotyped | 0.0000023 µM |
| CN(C)CCCNC(=O)c1csc(NC(=O)c2csc(NC(=O)c3csc(NC(=O)CCCCCN)n3)n2)n1 | IC50 | - | - | 3′ processing | - | 2 µM |
| COc1ccc2[nH]c3c(OC)cc4c(c3c2c1)C(=O)N(CCN(C)C)C4=O | IC50 | - | - | ELISA / strand transfer / luminescence | - | 16.92 µM |
| NCCCCCCNC(=O)c1csc(NC(=O)c2csc(NC(=O)CCCCCN)n2)n1 | IC50 | - | - | 3′ processing | - | 38 µM |
| O=C(/C=C/c1ccc(O)c(O)c1)OCCc1cccc(N=C=S)c1 | IC50 | - | - | 3′ processing | - | 3 µM |
| O=C(OC(Cc1ccc(O)c(O)c1)C(=O)O)c1cc(-c2ccc(O)c(O)c2)c2cc(O)c(O)cc2c1 | IC50 | - | - | strand transfer | - | 1.5 µM |
| O=C(/C=C/c1nccc2ccccc12)/C=C/c1nccc2ccccc12 | IC50 | - | - | - | - | 4.5 µM |
| CC(C)c1c(Cc2ccccc2)n(COCc2ccccc2)c(=O)n(N)c1=O | IC50 | - | - | strand transfer | - | >111 µM |
| COc1ccnc(CNC(=O)c2cn3c(c(O)c2=O)C(=O)N(Cc2ccc(F)cc2)CC3)n1 | IC50 | - | - | ELISA | - | 0.01–0.1 µM |
| Cc1cc(CNC(=O)C23CCC(NC(=O)C(=O)N(C)C)(CC2)c2nc(C(=O)NCc4ccc(F)c(C)c4)c(O)c(=O)n2C3)no1 | Ki | NL4-3 | - | binding | pseudotyped | 0.0000021 µM |
| O=C(/C=C/c1ccc(O)c(O)c1)OCCc1ccccc1 | IC50 | - | C56S | 3′ processing | - | 35 µM |
| Cc1ccc(C(=O)c2cccc(/C(O)=C/C(=O)C(=O)O)c2)cc1 | IC50 | - | - | 3′ processing | - | >333 µM |
| O=C(/C=C/c1ccc(O)c2c1[C@H](C(=O)O[C@H](Cc1ccc(O)c(O)c1)C(=O)O)[C@@H](c1ccc(O)c(O)c1)O2)O[C@H](Cc1ccc(O)c(O)c1)C(=O)O | IC50 | - | - | 3′ processing | - | 0.45 µM |
| CNC(=O)c1csc(NC(=O)c2csc(NC(=O)c3csc(NC(=O)CCCCCN)n3)n2)n1 | IC50 | - | - | 3′ processing | - | 9 µM |
| O=C(/C=C/c1ccc(O)c(O)c1)OCCc1ccccc1N=C=S | IC50 | - | - | 3′ processing | - | 3 µM |
| O=C1c2c(O)c(=O)c(-c3nccs3)cn2CCN1CCCc1ccccc1Cl | IC50 | - | - | ELISA | - | <0.01 µM |
| CC(=O)OC[C@H]1CCC(=O)N1c1cc(F)ccc1CNC(=O)c1nc2n(c(=O)c1O)CCOC2(C)C | IC50 | - | - | strand transfer | - | 0.02–0.1 µM |
| CNC(=O)c1csc(NC(=O)c2csc(NC(=O)CCCCCN)n2)n1 | IC50 | - | - | 3′ processing | - | 70 µM |
| O=C(NCc1ccc(F)cc1)c1cn2c(c(O)c1=O)C(=O)N(Cc1ccc(F)cc1)CC2 | IC50 | - | - | ELISA | - | <0.01 µM |
| CN(C)CCCNC(=O)c1csc(NC(=O)c2csc(NC(=O)c3csc(NC(=O)c4csc(NC(=O)CCCCCN)n4)n3)n2)n1 | IC50 | - | - | 3′ processing | - | 0.3 µM |
| CCCCn1cncc1-c1ccc(C(C)(C)C)cc1 | IC50 | - | - | strand transfer / luminescence | - | 22.4 µM |
| Cc1cc(CNC(=O)c2nc3n(c(=O)c2O)CC2(F)CCC3(NC(=O)C(=O)N(C)CC(C)C)CC2)ccc1F | Ki | NL4-3 | - | binding | pseudotyped | 0.0000021 µM |
| CN(C)CCN1C(=O)c2ccc3[nH]c4ccc(Cl)cc4c3c2C1=O | IC50 | - | - | strand transfer / luminescence | - | 22.5 µM |
| CC(C)S(=O)(=O)Cc1cc(=O)c(O)c2n1CCN(Cc1ccc(Cl)c(Cl)c1)C2=O | IC50 | - | - | ELISA | - | 0.01–0.1 µM |
| Cn1cc(NC(=O)c2cc(NC(=O)c3cc(NC=O)cn3C)cn2C)cc1C(=O)NCCC(=N)N | IC50 | - | - | 3′ processing | - | 3.5 µM |
| Cc1cn2ccc(=O)c(O)c2c(=O)n1Cc1ccc(Cl)c(Cl)c1 | IC50 | - | - | ELISA | - | 0.01–0.1 µM |
| [N-]=[N+]=NCc1ccc(C(=O)c2cccc(/C(O)=C/C(=O)C(=O)O)c2)cc1 | IC50 | - | - | strand transfer | - | 33.7 µM |
| CCCCn1cncc1-c1cccc(OC)c1 | IC50 | - | - | strand transfer / luminescence | - | 30.5 µM |
| NCCCCCC(=O)Nc1nc(C(=O)Nc2nc(C(=O)Nc3nc(C(=O)Nc4nc(C(=O)NCC(O)CO)cs4)cs3)cs2)cs1 | IC50 | - | - | 3′ processing | - | 2.2 µM |
| O=C(/C=C/c1ccc(O)c(O)c1)OCCc1ccc(N=C=S)cc1 | IC50 | - | C65S | 3′ processing | - | 7 µM |
| C=Cc1cccnc1/C=C/C(=O)/C=C/c1ncccc1C=C | IC50 | - | - | - | - | 7.9 µM |
| CN(C)CCN1C(=O)c2cc(C3CC3)c3[nH]c4ccc(O)cc4c3c2C1=O | IC50 | - | - | ELISA / strand transfer / luminescence | - | 20.51 µM |
| O=c1c(CO)cn2ccn(Cc3cccc(Cl)c3)c(=O)c2c1O | IC50 | - | - | ELISA | - | 0.01–0.1 µM |
| COc1cccc(-c2cncn2C2CCCCC2)c1 | IC50 | - | - | strand transfer / luminescence | - | 21.9 µM |
| O=c1ccn2ccn(Cc3ccc(Cl)cc3)c(=O)c2c1O | IC50 | - | - | ELISA | - | 0.01–0.1 µM |
| Cc1cc2c(c3c1[nH]c1cc(F)c(O)cc13)C(=O)N(CCN(C)C)C2=O | IC50 | - | - | ELISA / strand transfer / luminescence | - | 4.38 µM |

Repeating the first 5 entries:

| smiles | endpoint | strain | changes | read by | setting | result |
|---|---|---|---|---|---|---|
| O=C(/C=C/c1ccc(O)c(O)c1)OCCc1ccc(NC(=S)SCCO)cc1 | IC50 | - | C56S | 3′ processing | - | 23 µM |
| COc1cccc(/C=C/C(=O)/C=C/c2cccc(OC)n2)n1 | IC50 | - | - | - | - | >20 µM |
| Cc1nsc(-c2cn3c(c(O)c2=O)C(=O)N(Cc2cccc(Cl)c2)CC3)n1 | IC50 | - | - | ELISA | - | 0.01–0.1 µM |
| CN(C)C(=O)C(=O)N(C)C12CCC(CC#N)(CC1)Cn1c2nc(C(=O)NCc2ccc(F)cc2)c(O)c1=O | Ki | NL4-3 | - | binding | pseudotyped | 0.0000023 µM |
| CN(C)CCCNC(=O)c1csc(NC(=O)c2csc(NC(=O)c3csc(NC(=O)CCCCCN)n3)n2)n1 | IC50 | - | - | 3′ processing | - | 2 µM |